A mixed list of measured activities; the numbers were collected in NIAID ChemDB.

Shared fields: growth or infection tests; agent: Herpes simplex virus 2; read-out: EC50

Rows are shuffled and stem from different studies. ECn: concentration that inhibits the pathogen or its effect by n%. An empty or dashed field is not shown.

SMILES,strain or isolate,method,result
CC(C)c1cn([C@@H]2OC3COP(=O)(O)OC3[C@H]2O)c(=O)nc1N,G,,>400 µg/mL
O=C(c1ccc([N+](=O)[O-])cc1)n1c(-c2ccccc2)nc2ccccc21,G,,>20 µg/mL
CCc1cn([C@@H]2O[C@H](COP(=O)(O)O)[C@@H](O)[C@H]2O)c(=O)nc1N,LYONS,,>400 µg/mL
O=C(c1ccccc1Br)n1c(-c2ccc(O)cc2)nc2ccccc21,G,,>100 µg/mL
CC(C)c1cn([C@@H]2O[C@H](COP(=O)(O)O)[C@@H](O)[C@H]2O)c(=O)nc1N,G,,>400 µg/mL
O=C(O)c1ccccc1-c1nc2ccccc2n1C(=O)c1ccccc1Br,G,,>100 µg/mL
[N-]=[N+]=N[C@H]1C[C@@H](CO)S[C@@H]1n1cnc2c(N)ncnc21,,,>100 µg/mL
O=C(c1ccccc1Br)n1c(-c2ccccc2[N+](=O)[O-])nc2ccccc21,G,,>100 µg/mL
[N-]=[N+]=N[C@H]1C[C@H](CO)S[C@H]1n1ccc(N)nc1=O,,,>100 µg/mL
O=c1c2ncn(COCCO)c2nc2[nH]c(-c3ccccc3)c(-c3ccc(C(c4ccccc4)c4ccccc4)cc3)n12,196,cytopathic effect,>16 µg/mL
COc1ccccc1-c1nc2ccccc2n1C(=O)c1ccc([N+](=O)[O-])cc1,G,,>100 µg/mL
[N-]=[N+]=N[C@H]1C[C@H](CO)S[C@@H]1n1cnc2c(N)ncnc21,,,>100 µg/mL
Cc1cn([C@H]2S[C@H](CO)[C@@H](O)[C@@H]2F)c(=O)[nH]c1=O,MS,cytopathic effect,>27 µg/mL
[N-]=[N+]=N[C@@H]1C[C@@H](CO)S[C@H]1n1ccc(=O)[nH]c1=O,,,>100 µg/mL
O=c1c2ncn(COCCO)c2[nH]c2ncc(CO)n12,G,cytopathic effect,>3.2 µg/mL
CCCCCCCCc1cn([C@@H]2O[C@H](COP(=O)(O)O)[C@@H](O)[C@H]2O)c(=O)nc1N,196,,>400 µg/mL
CCc1cn([C@H]2S[C@H](CO)[C@@H](O)[C@@H]2F)c(=O)[nH]c1=O,MS,cytopathic effect,27 µg/mL
[N-]=[N+]=N[C@H]1C[C@H](CO)S[C@@H]1n1cnc2c(Cl)ncnc21,,,>100 µg/mL
CC(=O)OC[C@H]1O[C@@H](n2cc(-c3cc(-c4ccc(C(C)(C)C)cc4)no3)c(=O)[nH]c2=O)CC[C@@H]1O,,,0.03 µg/mL
O=c1c2ncn(COC(CO)CO)c2[nH]c2nccn12,196,cytopathic effect,2 µg/mL
[N-]=[N+]=N[C@H]1C[C@H](CO)S[C@@H]1n1ccc(N)nc1=O,,,>100 µg/mL
Nc1nc(N)c2ncn([C@H]3S[C@H](CO)[C@@H](O)[C@@H]3F)c2n1,MS,cytopathic effect,>27 µg/mL
CC(=O)OCCOCn1cnc2c(=O)n3cc(-c4ccc5ccccc5c4)[nH]c3nc21,LYONS,cytopathic effect,>16 µg/mL
O=c1[nH]c(=O)n([C@@H]2S[C@H](CO)[C@@H](O)[C@@H]2F)cc1/C=C/Br,MS,cytopathic effect,9 µg/mL
O=C(O)c1ccccc1-c1nc2ccccc2n1C(=O)c1ccc([N+](=O)[O-])cc1,G,,>100 µg/mL
O=C(Cc1ccccc1)NCCCCNC(=O)Cc1ccccc1,,plaque count,>20 µg/mL
Cc1cn([C@@H]2O[C@H](COP(=O)(O)O)[C@@H](O)[C@H]2O)c(=O)nc1N,LYONS,,>400 µg/mL
O=c1c2ncn(COCCO)c2[nH]c2ncc(C(c3ccccc3)(c3ccccc3)c3ccccc3)n12,LYONS,cytopathic effect,>16 µg/mL

The last 3 rows once more:

O=C(Cc1ccccc1)NCCCCNC(=O)Cc1ccccc1 ; method: plaque count ; result: >20 µg/mL
Cc1cn([C@@H]2O[C@H](COP(=O)(O)O)[C@@H](O)[C@H]2O)c(=O)nc1N ; strain or isolate: LYONS ; result: >400 µg/mL
O=c1c2ncn(COCCO)c2[nH]c2ncc(C(c3ccccc3)(c3ccccc3)c3ccccc3)n12 ; strain or isolate: LYONS ; method: cytopathic effect ; result: >16 µg/mL